This is an account of results in ChEMBL document CHEMBL6134901 (J Med Chem, 2025).

Molecules are shown by their SMILES.

The nature of data set [1]: Selectivity ratio of IC50 for inhibition of bacterial CspB to IC50 for antibacterial activity against Clostridium difficile ATTC43255 assessed as spore germination inhibition.
A short description of data set [2]: Selectivity ratio of drug concentration in feces of ICR mouse at 30 mg/kg, po measured after 8 hrs to IC50 for antibacterial activity against Clostridium difficile ATTC43255 assessed as spore germination inhibition. Conditions: in vivo.
Data set [3] in a line: Selectivity index, ratio of LD50 for cytotoxicity against human HepG2 cells to IC50 for antibacterial activity against Clostridium difficile ATTC43255 assessed as spore germination inhibition.

Take `Cl.NCc1ccc(-c2nc(-c3ccnc(Oc4ccc(C(F)(F)F)cc4)c3)no2)cc1`: in data set [1], the Ratio IC50 was 2.4. The Ratio in data set [2] is below 2. Also, the Ratio LD50/IC50 in data set [3] was 9.

With `Oc1ccc(-c2nc(-c3ccc(OC4CCCC4)cc3)no2)cc1`, the Ratio LD50/IC50 in data set [3] worked out at 0.9.
